A mixed list of measured activities; the numbers were collected in NIAID ChemDB.

Common to all: tests in culture; agent: HIV-1; endpoint: EC50

Blank or dashed fields: not listed here. Two numbers with a dash give a range or band. Neighbouring rows are from separate reports. ECn: concentration that inhibits the pathogen or its effect by n%.

SMILES | strain | mutations | cells | method | value
[2H]C([2H])(NC(=O)c1ccc(Cl)cc1)C(=O)NC[C@H](O)[C@@]12CC[C@]3(C)[C@H](CC[C@@H]4[C@@]5(C)CC[C@H](OC(=O)[C@H]6C[C@@H](C(=O)O)C6(C)C)C(C)(C)[C@@H]5CC[C@]43C)C1=C(C(C)C)C(=O)C2 | 92HT599 |  | MT-2 | p24 / ELISA | <1 µM
COCc1nc(Nc2ccc(C#N)cc2)nc(Oc2c(C)cc(/C=C(\C)C#N)cc2C)c1C(=O)NCc1ccncc1 | K103N+Y101C |  | MT4 CMV-EGFP |  | 0.105 µM
Cc1ncc(-c2ccc(OCCOc3ccncc3)cn2)c(N2CCC(C)(C)CC2)c1[C@H](OC(C)(C)C)C(=O)O | NL4-3 |  | MT-2 | luminescence | 0.0479 µM
CCC(=O)c1ccc(F)c([C@@H]2C[C@@H]2NC(=O)Nc2ccc(C#N)cn2)c1O | LAI | NNRTI-resistant (RT K101E/G190A) | TZM-bl | β-galactosidase / luminescence | 0.00145 µM
COC(=O)c1ccc(F)c2c(C(=O)C(=O)N3CCN(C(=O)c4ccccc4)C[C@H]3C)c[nH]c12 |  |  | HeLa + HELA CD4+/CCR5 | luciferase | <10 µM
Cc1cc2[nH]cnc2cc1NC(=O)COc1ccc(Cl)cc1C(=O)c1cc(F)cc(C(F)(F)F)c1 | HXB2 | RT-K103N P225H | HeLa + HELA CD4+ | β-galactosidase | <0.01 µM
N#CC1=CC2Nc3ccccc3C2N(c2ccc([N+](=O)[O-])cc2)C1=O | 12AG |  | HeLa | GFP / fluorescence | 0.49 µM
CC(C)=CCOc1cc(NC(=S)c2ccsc2C)ccc1Cl | Pyridinone-resistant (RT Y181C K103N) | RT-K103N Y181C | CEM + CEM-SS | cytopathic effect / XTT | >2 µM
COCCNC(=O)c1c(COC)nc(Nc2ccc(C#N)cc2)nc1Oc1c(C)cc(/C=C/C#N)cc1C | L1001+K103N |  | MT4 CMV-EGFP |  | 0.0813 µM
CC(=O)c1ccc(C)cc1NC(C(N)=O)c1c(Cl)cccc1Cl | UC82-R (RT-Y181C) | RT-Y181C | CEM + CEM-SS | cytopathic effect / XTT | >1 µM
O=C(C(=O)N1CCN(C(=O)c2ccccc2)CC1C(F)(F)F)c1c[nH]c2cccc(F)c12 |  |  | HeLa + HELA CD4+/CCR5 | luciferase | <10 µM
Cc1ncc(-c2ccc(NCCOc3ccc(F)cc3C(=O)O)cn2)c(N2CCC(C)(C)CC2)c1[C@H](OC(C)(C)C)C(=O)O | NL4-3 |  | MT-2 | luminescence | 6.31 µM
Cc1cc(OCCCS(N)(=O)=O)ccc1NC(=O)COc1ccc(Cl)cc1C(=O)c1cc(F)cc(C(F)(F)F)c1 | WTRVA |  | HeLa + HELA CD4+ | β-galactosidase | <0.01 µM
Cc1ncc(-c2ccc(OCCOc3ccccc3)cc2)c(N2CCC(C)(C)CC2)c1[C@H](OC(C)(C)C)C(=O)O | NL4-3 |  | MT-2 | luminescence | 0.0033 µM
CC(C)C1=C2[C@H]3CC[C@@H]4[C@@]5(C)CC[C@H](OC(=O)[C@H]6C[C@@H](C(=O)O)C6(C)C)C(C)(C)[C@@H]5CC[C@@]4(C)[C@]3(C)CC[C@@]2([C@@H](O)CNC(=O)C(C)(C)C)CC1=O | 92HT599 |  | MT-2 | p24 / ELISA | <1 µM
Cc1cc(C)cc(C(=O)c2cc(Cl)ccc2OCC(=O)Nc2ccc(S(N)(=O)=O)cc2C)c1 | HXB2 | RT-V106I | HeLa + HELA CD4+ | β-galactosidase | <0.01 µM
Cc1ccc(C)n1-c1ccc(C(=O)O)c(O)c1 | 92US657 R5 CLADE B |  | PBMC + MT-2 | p24 | 44.13 µM
CC(C)C1=C2[C@H]3CC[C@@H]4[C@@]5(C)CC[C@H](OC(=O)[C@H]6C[C@@H](C(=O)O)C6(C)C)C(C)(C)[C@@H]5CC[C@@]4(C)[C@]3(C)CC[C@@]2(CCNCC(F)(CCCN)NC(=O)c2ccc(Cl)cc2)CC1=O | 92HT599 |  | MT-2 | p24 / ELISA | <1 µM
COc1cccc2[nH]cc(C(=O)C(=O)N3CCN(C(=O)c4cccc(NC(=O)OC(C)(C)C)c4)C[C@H]3C)c12 |  |  | HeLa + HELA CD4+/CCR5 | luciferase | <10 µM
Cc1ncc(-c2ccc(OCC3CC3)nc2)c(N2CCC(C)(C)CC2)c1[C@H](OC(C)(C)C)C(=O)O | NL4-3 |  | MT-2 | luminescence | 0.007 µM
CC(C)=CCOc1cc(NC(=S)c2ccoc2C)ccc1Cl | NL4-3 | RT-Y181C | CEM + CEM-SS | cytopathic effect / XTT | 0.08 µM
[2H]C(CCN)(CNCC[C@@]12CC[C@]3(C)[C@H](CC[C@@H]4[C@@]5(C)CC[C@H](OC(=O)[C@H]6C[C@@H](C(=O)O)C6(C)C)C(C)(C)[C@@H]5CC[C@]43C)C1=C(C(C)C)C(=O)C2)NC(=O)c1ccc(Cl)cc1 | 92HT599 |  | MT-2 | p24 / ELISA | <1 µM
C[C@@H]1CN(C(=O)c2ccccn2)CCN1C(=O)C(=O)c1c[nH]c2cccc(Cl)c12 |  |  | HeLa + HELA CD4+/CCR5 | luciferase | <10 µM
CCCCO[C@H](C(=O)O)c1c(C)ncc(-c2ccc(OCC3CCC3)cn2)c1N1CCC(C)(C)CC1 | NL4-3 |  | MT-2 | luminescence | 0.02 µM
COCc1nc(Nc2ccc(C#N)cc2)nc(Nc2c(C)cc(/C=C/C#N)cc2C)c1C(=O)NCc1ccccn1 | L1001+K103N |  | MT4 CMV-EGFP |  | 0.0525 µM
C[C@H]1CN(C(=O)c2ccccc2)CCN1C(=O)C(=O)c1c[nH]c2c(F)c(F)c(F)c(F)c12 |  |  | HeLa + HELA CD4+/CCR5 | luciferase | <10 µM
Cc1cccc(C(=O)NC(C)(C)CNCC[C@@]23CC[C@]4(C)[C@H](CC[C@@H]5[C@@]6(C)CC[C@H](OC(=O)[C@H]7C[C@@H](C(=O)O)C7(C)C)C(C)(C)[C@@H]6CC[C@]54C)C2=C(C(C)C)C(=O)C3)n1 | 92HT599 |  | MT-2 | p24 / ELISA | <1 µM
COc1ccc(Cl)c2[nH]cc(C(=O)C(=O)N3CCN(C(=O)c4ccccn4)C[C@H]3C)c12 |  |  | HeLa + HELA CD4+/CCR5 | luciferase | <10 µM
Cc1nnc(C(=O)N(CCN(C)C)CC[C@@]23CC[C@]4(C)[C@H](CC[C@@H]5[C@@]6(C)CC[C@H](OC(=O)[C@H]7C[C@@H](C(=O)O)C7(C)C)C(C)(C)[C@@H]6CC[C@]54C)C2=C(C(C)C)C(=O)C3)o1 | 92HT599 |  | MT-2 | p24 / ELISA | <1 µM
C[C@@H]1CCO[C@H]2Cn3cc(C(=O)NCc4ccc(F)cc4F)c(=O)c(O)c3C(=O)N12 | NL4-3 | G140S/Q148H | CBMC | RT activity | 0.0081 µM
COCc1nc(Nc2ccc(C#N)cc2)nc(Oc2c(C)cc(/C=C/C#N)cc2C)c1C(=O)NCc1ccncc1 | MDR |  | MT4 CMV-EGFP |  | 1.23 µM
CC(C)C1=C2[C@H]3CC[C@@H]4[C@@]5(C)CC[C@H](OC(=O)[C@H]6C[C@@H](C(=O)O)C6(C)C)C(C)(C)[C@@H]5CC[C@@]4(C)[C@]3(C)CC[C@@]2(CCNCc2ccc3nc(-c4ccccc4)[nH]c3c2)CC1=O | 92HT599 |  | MT-2 | p24 / ELISA | <1 µM
COCCNC(=O)c1c(COC)nc(Nc2ccc(C#N)cc2)nc1Nc1c(C)cc(/C=C/C#N)cc1C | K103N + Y181C |  | MT4 CMV-EGFP |  | 0.0145 µM
Cc1cc(C#N)cc(C(=O)c2cc(Cl)ccc2OCC(=O)Nc2ccc(S(N)(=O)=O)cc2C)c1 | HXB2 | RT-V108I Y181C | HeLa + HELA CD4+ | β-galactosidase | <0.01 µM
O=C(C(=O)N1CCN(C(=O)c2ccccc2)CC1)c1c[nH]c2cc(Cl)c(Cl)cc12 |  |  | HeLa + HELA CD4+/CCR5 | luciferase | <10 µM
Cc1cc(S(N)(=O)=O)ccc1NC(=O)COc1ccc(Cl)cc1C(=O)c1cc(F)cc(C(F)(F)F)c1 | IIIB | RT-P225H | HELA MAGI | luciferase | 0.0007 µM
COCc1nc(Nc2ccc(C#N)cc2)nc(Nc2c(C)cc(/C=C/C#N)cc2C)c1C(=O)NCCc1cccs1 | MDR |  | MT4 CMV-EGFP |  | 1.62 µM
Cc1cc(Cl)ccc1OCCNc1ccc(-c2cnc(C)c([C@H](OC(C)(C)C)C(=O)O)c2N2CCC(C)(C)CC2)nc1 | NL4-3 |  | MT-2 | luminescence | 0.005 µM
COc1cc(-c2ccc(N=Nc3ccc4c(S(=O)(=O)O)cc(S(=O)(=O)O)c(N)c4c3O)c(OC)c2)ccc1N=Nc1ccc2c(S(=O)(=O)O)cc(S(=O)(=O)O)c(N)c2c1O | LAV |  | CEM + CEM-SS | cytopathic effect / XTT | 0.9 µM
Cc1nc(C)c(CNCC[C@@]23CC[C@]4(C)[C@H](CC[C@@H]5[C@@]6(C)CC[C@H](OC(=O)[C@H]7C[C@@H](C(=O)O)C7(C)C)C(C)(C)[C@@H]6CC[C@]54C)C2=C(C(C)C)C(=O)C3)s1 | 92HT599 |  | MT-2 | p24 / ELISA | <1 µM
C/C=C/CSc1cc(NC(=S)c2ccsc2C)ccc1Cl | BaL |  | MAC | p24 | 0.2 µM
Cc1cc(S(N)(=O)=O)ccc1NC(=O)COc1ccc(Cl)cc1C(=O)c1cccc(C#N)n1 | HXB2 | RT-P236L | HeLa + HELA CD4+ | β-galactosidase | <0.01 µM
CC1CC(C)CN(S(=O)(=O)c2ccccc2[N+](=O)[O-])C1 | 1617-1 |  | HeLa | GFP / fluorescence | 1 µM
Cc1cc(OCCCN2CCOCC2)ccc1NC(=O)COc1ccc(Cl)cc1C(=O)c1cccs1 | HXB2 | RT-K103N | HeLa + HELA CD4+ | β-galactosidase | 0.011–0.1 µM
Nc1cccc(C(=O)N2CCN(C(=O)C(=O)c3c[nH]c4cccc(Cl)c34)CC2)c1 |  |  | HeLa + HELA CD4+/CCR5 | luciferase | <10 µM
CCCc1cc(=O)oc2c3c(c4c(c12)OC(C)(C)CC4)O[C@@H](C)[C@H](C)[C@@H]3O | IIIB |  | CEM + CEM-SS | XTT | 0.2 µM
Cc1ncc(-c2cnc(OCCCN3CCCCC3)c(F)c2)c(N2CCC(C)(C)CC2)c1[C@H](OC(C)(C)C)C(=O)O | NL4-3 |  | MT-2 | luminescence | 0.0191 µM
Cc1cc(S(N)(=O)=O)ccc1NC(=O)COc1ccc(Cl)cc1C(=O)c1cccc(C#N)c1 | HXB2 | RT-G190A | HeLa + HELA CD4+ | β-galactosidase | <0.01 µM
COCc1nc(Nc2ccc(C#N)cc2)nc(Nc2c(C)cc(/C=C/C#N)cc2C)c1C(=O)N1CCCC(C(N)=O)C1 | K103N+Y101C |  | MT4 CMV-EGFP |  | 0.661 µM
CC(C)C1=C2[C@H]3CC[C@@H]4[C@@]5(C)CC[C@H](OC(=O)[C@H]6C[C@@H](C(=O)O)C6(C)C)C(C)(C)[C@@H]5CC[C@@]4(C)[C@]3(C)CC[C@@]2(CCNCC(C)(C)NC(=O)c2ccccc2Cl)CC1=O | 92HT599 |  | MT-2 | p24 / ELISA | <1 µM

Again, the opening 4 rows:

SMILES	strain	mutations	cells	method	value
[2H]C([2H])(NC(=O)c1ccc(Cl)cc1)C(=O)NC[C@H](O)[C@@]12CC[C@]3(C)[C@H](CC[C@@H]4[C@@]5(C)CC[C@H](OC(=O)[C@H]6C[C@@H](C(=O)O)C6(C)C)C(C)(C)[C@@H]5CC[C@]43C)C1=C(C(C)C)C(=O)C2	92HT599		MT-2	p24 / ELISA	<1 µM
COCc1nc(Nc2ccc(C#N)cc2)nc(Oc2c(C)cc(/C=C(\C)C#N)cc2C)c1C(=O)NCc1ccncc1	K103N+Y101C		MT4 CMV-EGFP		0.105 µM
Cc1ncc(-c2ccc(OCCOc3ccncc3)cn2)c(N2CCC(C)(C)CC2)c1[C@H](OC(C)(C)C)C(=O)O	NL4-3		MT-2	luminescence	0.0479 µM
CCC(=O)c1ccc(F)c([C@@H]2C[C@@H]2NC(=O)Nc2ccc(C#N)cn2)c1O	LAI	NNRTI-resistant (RT K101E/G190A)	TZM-bl	β-galactosidase / luminescence	0.00145 µM